Assay results as given in ChEMBL document CHEMBL1125681, “Specific anti-HIV-1 "acyclonucleosides" which cannot be phosphorylated: synthesis of some deoxy analogues of 1-[(2-hydroxyethoxy)methyl]-6-(phenylthio)thymine” (J Med Chem, 1991).

Assay: CC50/EC50 ratio expressed as selectivity index(SI)
Type: functional
Procedure, shortened: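 Ratio of two MT-4 values from this work. CC50 is the concentration that reduces the viability of mock-infected MT-4 cells by 50%. EC50 is the concentration giving 50% protection of HIV-1-infected MT-4 cells against virus cytopathic effect. Both are means (± standard deviation or range) of at least two separate experiments.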

For `CCc1c(Sc2ccccc2)n(COCCO)c(=O)[nH]c1=O`, the Ratio was 3300.
